A mixed list of measured activities; the numbers were collected in NIAID ChemDB.

Common to all: whole-cell or culture tests; agent: Mycobacterium smegmatis; measure: MIC

Rows are shuffled and stem from different studies.

structure,strain,value
CCOc1c(N2CCNC(C)C2)c(F)cc2c(=O)c(C(=O)O)cn(C3CC3)c12,ATCC 19420,0.13 µg/mL
CCC[C@H](N)C(=O)N[C@H]1CCN(c2c(F)cn3c(=O)c(C(=O)O)cc(C4CC4)c3c2C)C1.Cl,ATCC114,0.78 µg/mL
O=C(O)c1cn(C2CC2)c2c(F)c(N3CCNCC3)c(F)cc2c1=O,ATCC 19420,0.25 µg/mL
NCC[C@H](O)C(=O)N[C@@H]1C[C@H](N)[C@@H](O[C@H]2O[C@H](CN)[C@@H](O)[C@H](O)[C@H]2O)[C@H](O)[C@H]1O[C@H]1O[C@H](CO)[C@@H](O)[C@H](N)[C@H]1O,A24001,>128 µg/mL
Cc1c(N2CC3CCCN(C)C3C2)c(F)cn2c(=O)c(C(=O)O)cc(C3CC3)c12.Cl,ATCC114,0.1 µg/mL
Cc1c(CN2CCN(C)CC2)cc(-c2ccc(Cl)cc2)n1C1CCCCC1,103599,4 µg/mL
CC[n+]1c(-c2ccccc2)c2cc(N)ccc2c2ccc(N)cc21,PSB51 LFR,16 µg/mL
Cc1c(N2CCC(C(C)(C)N)C2)c(F)cn2c(=O)c(C(=O)O)cc(C3CC3)c12,ATCC114,0.02 µg/mL
COc1c(N2CC(C)NC(C)C2)c(F)cc2c(=O)c(C(=O)O)cn(-c3ccc(F)cc3F)c12,ATCC 19420,16 µg/mL
Cc1c(CN2CCN(C)CC2)c(CN2CCN(C)CC2)c(-c2ccc(Cl)cc2)n1Cc1ccccc1,103599,16 µg/mL
Cc1c(N2CCC(CCO)CC2)c(F)cn2c(=O)c(C(=O)O)cc(C3CC3)c12,ATCC114,0.2 µg/mL
CCOc1c(N2CCN(CC)CC2)c(F)cc2c(=O)c(C(=O)O)cn(C3CC3)c12,ATCC 19420,0.5 µg/mL
Cc1c(CN2CCN(C)CC2)cc(-c2ccc(Cl)cc2)n1Cc1ccccc1,103599,8 µg/mL
Cc1c(N2CC[C@@H]([C@@H](C)N)C2)c(F)cn2c(=O)c(C(=O)O)cc(C3CC3)c12.Cl,ATCC114,0.002 µg/mL
Cc1ccc(C)n1C1CCCCC1,103599,>16 µg/mL
CCn1cc(C(=O)O)c(=O)c2cc(F)c(N3CC(C)NC(C)C3)nc21,ATCC 19420,2 µg/mL
CC[C@@H](NC)[C@@H]1CCN(c2c(F)cn3c(=O)c(C(=O)O)cc(C4CC4)c3c2C)C1.Cl,ATCC114,0.2 µg/mL
CC1CN(c2c(F)cc3c(=O)c(C(=O)O)cn(C4CC4)c3c2C(F)(F)F)CCN1,ATCC 19420,2 µg/mL
CCCCCCCCCCCCCCCC[N+](C)(C)CC,PMN1 LFR (CCCP),8 µg/mL
Cc1c(N2C[C@@H]3C[C@H]2CN3)c(F)cn2c(=O)c(C(=O)O)cc(C3CC3)c12,ATCC114,0.2 µg/mL
NC1CCN(c2c(F)cc3c(=O)c(C(=O)O)cn(C4CC4)c3c2Cl)C1,ATCC 19420,≤0.03 µg/mL

The last 2 rows once more:

structure | strain | value
Cc1c(N2C[C@@H]3C[C@H]2CN3)c(F)cn2c(=O)c(C(=O)O)cc(C3CC3)c12 | ATCC114 | 0.2 µg/mL
NC1CCN(c2c(F)cc3c(=O)c(C(=O)O)cn(C4CC4)c3c2Cl)C1 | ATCC 19420 | ≤0.03 µg/mL